This series concerns T. brucei parasites. The series is described as follows: Fluorescence microscopy, uptake and subcellular localization in parasites. Type of series: cell-based, Trypanosoma brucei. The following applies: 5 μM.

This passage reports subcellular localization results from article PMC12643529 (ACS Infectious Diseases, 2025).

For `CN(C)c1ccc(/C=C/c2sc3ccccc3[n+]2C)cc1.[I-]` [compound 2b], the subcellular localization entry by setting is: (30 min incubation) “fluorescence detected in both the cytoplasm and mitochondria”; (longer periods of incubation (1 h, 2 h)) “increased colocalization in the nucleus and kinetoplast”.
